This is a selection; strong and weak results do not stand in their true shares. Active and inactive are the calls of the source. Calls follow the shape of the dose curve; as a rule, active = well fitted inhibition curve with a large enough effect; inconclusive = small, poorly fitted or top-dose-only effect; inactive = no such curve, though single readings can be large or run the other way.
test system: Plasmodium falciparum AMA1 (3D7) - RON2 peptide interaction; assay: qHTS for Inhibitors of AMA1-RON; Towards Development of Antimalarial Drug Lead: Primary Screen; details: AlphaScreen AMA1-biotinylated RON2 peptide binding; at 58.2 µM (top of the series) unless noted;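 also: 0% = vehicle wells and -100% = peptide control; nearly all actives have a fitted effect of over 45% in size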

| Compound | activity change, negative = inhibition |
| --- | --- |
| CP(=S)(Nn1cnnc1)Oc1ccccc1 (stereo not drawn) | inactive: 27.2% |
| COc1ccccc1OP(C)(=O)Nc1ccccc1 (stereo not drawn) | inactive: 11.4% |
| CP(=O)(Nc1ccccc1Br)Oc1ccccc1 (stereo not drawn) | inactive: 4.9% |
| CP(=O)(Oc1ccccc1)OC(c1ccccc1)C(F)(F)F (stereo not drawn) | inactive: -2.25% |
| CP(=O)(Nc1ccc(SC(F)(F)F)cc1)Oc1ccc(Cl)cc1 (stereo not drawn) | inactive: 1.19% |
| Cc1cccc(C)c1OP(C)(=O)Nc1ccc(SC(F)(F)F)cc1 (stereo not drawn) | inactive: -11.8% [at 2.32 µM] |
| Cc1cc(C)cc(OP(C)(=O)Nc2ccc(SC(F)(F)F)cc2)c1 (stereo not drawn) | inactive: 0% |
| CP(=O)(NC(=O)Nc1ccccc1)Oc1ccccc1 (stereo not drawn) | inactive: 33.7% |
| CCOP(C)(=S)SCC(=O)NC(C)C(=O)O (stereo not drawn) | inactive: 4.01% |
| O=[N+]([O-])c1cc([N+](=O)[O-])c(O)c([N+](=O)[O-])c1.c1ccc(Oc2ccncc2)cc1 | inactive: 3.96% |
| CCOC(=O)c1ccc(NP(C)(=O)Oc2ccc(OC)cc2)cc1 (stereo not drawn) | inactive: 10.9% |
| CP(=O)(Nc1ccccn1)Oc1ccc(Cl)cc1 (stereo not drawn) | inactive: -2.88% |
| CCN(CC)CCCOC(=O)C(O)(c1ccccc1)c1ccccc1 | inactive: 0.0737% |
| COc1ccccc1-c1ccccn1.O=[N+]([O-])c1cc([N+](=O)[O-])c(O)c([N+](=O)[O-])c1 | inactive: -5.49% |
| O=[N+]([O-])c1cc([N+](=O)[O-])c(Nc2cccnc2)c([N+](=O)[O-])c1 | inactive: -7.43% |
| Cc1cccc(C)c1OP(C)(N)=O (stereo not drawn) | inactive: 0.758% |
| CC(C)(C)c1ccc(OP(C)(=O)Nc2ccc(SC(F)(F)F)cc2)cc1 (stereo not drawn) | inactive: -29.1% |
| O=[N+]([O-])c1ccc2c(c1)C=Nc1ccccc1O2 | inactive: -21% |
| CCOC(=O)c1ccc(NP(C)(=O)Oc2ccccc2)cc1 (stereo not drawn) | inactive: 20.5% |
| Cc1ccc(NP(C)(=O)Oc2ccccc2)c(C)c1 (stereo not drawn) | inactive: 0.926% |
| COc1ccccc1OP(C)(=O)Nc1ccc(C)cc1 (stereo not drawn) | inactive: -1.69% |
| COc1ccc(OP(C)(=O)Nc2cccc(F)c2)cc1 (stereo not drawn) | inactive: -0.685% |

| Compound | activity change, negative = inhibition |
| --- | --- |
| COc1ccccc1OP(C)(=O)Nc1cc(Cl)ccc1C (stereo not drawn) | inactive: -7.15% |
| Cc1cc(C)cc(OP(C)(N)=O)c1 (stereo not drawn) | inactive: -18.8% |
| CC1=NCCc2c1[nH]c1ccccc21.O=[N+]([O-])c1cc([N+](=O)[O-])c(O)c([N+](=O)[O-])c1 | inactive: -19.1% |
| COc1ccccc1OP(C)(=O)Nc1cccc(Br)c1 (stereo not drawn) | inactive: 8.33% |
| Cc1cc(C)cc(OP(C)(=O)Nc2ccc(C)cc2C)c1 (stereo not drawn) | inactive: -1.96% |
| CCOC(=O)c1ccc(NP(C)(=O)Oc2cc(C)cc(C)c2)cc1 (stereo not drawn) | inactive: -0.656% |
| CP(=O)(Nc1cccc(Br)c1)Oc1ccccc1 (stereo not drawn) | inactive: 0.0297% |
| Cc1cc(C)cc(OP(C)(=O)Nc2ccccn2)c1 (stereo not drawn) | inactive: 6.55% |
| Cc1ccc(C)c(NP(C)(=O)Oc2ccccc2)c1 (stereo not drawn) | inactive: -14.4% |
| O=[N+]([O-])c1cc([N+](=O)[O-])c(-n2nnc3ccccc32)c([N+](=O)[O-])c1 | inactive: 0% |
| CN(Cc1cccnc1)C(=O)COc1ccc(Cl)c(Cl)c1.O=[N+]([O-])c1cc([N+](=O)[O-])c(O)c([N+](=O)[O-])c1 | inactive: -11.6% |
| Cc1nc2ccc3ccccc3c2s1.O=[N+]([O-])c1cc([N+](=O)[O-])c(O)c([N+](=O)[O-])c1 | inactive: 12.3% |
| O=[N+]([O-])c1cc([N+](=O)[O-])c(Nc2nnnn2CCO)c([N+](=O)[O-])c1 | inactive: -4.55% |
| CC1=C2N=C(C=C3N=C(C(C)=C4[N-][C@@](C)([C@@H]5N=C1[C@](C)(CCC(=O)NC[C@@H](C)OP(=O)([O-])O[C@H]1[C@@H](O)[C@@H](n6cnc7cc(C)c(C)cc76)O[C@@H]1CO)[C@H]5CC(N)=O)[C@@](C)(CC(N)=O)[C@@H]4CCC(N)=O)[C@@](C)(CC(N)=O)[C@@H]3CCC(N)=O)C(C)(C)[C@@H]2CCC(N)=O.[C-]#N.[Co+3] | inactive: -12% |
| CN1CCCCC1COC(=O)C1(O)c2ccccc2CCc2ccccc21 (stereo not drawn) | inactive: 9.17% [at 11.6 µM] |
| COc1ccccc1OP(C)(=O)Nc1c(C)cccc1C (stereo not drawn) | inactive: 5.45% |
| CP(=O)(Nc1ccc(SC(F)(F)F)cc1)Oc1ccccc1 (stereo not drawn) | inactive: 20.7% |
| CCCOc1ccc(NP(C)(=O)Oc2ccc(Cl)cc2)cc1 (stereo not drawn) | inactive: 6.63% |
| COc1ccc(-c2ccccn2)cc1.O=[N+]([O-])c1cc([N+](=O)[O-])c(O)c([N+](=O)[O-])c1 | inactive: 1.71% |
| COc1ccc(OP(C)(=O)Nc2cccc(Br)c2)cc1 (stereo not drawn) | inactive: -1.66% |
| COc1ccc(NP(C)(=O)Oc2ccccc2OC)cc1 (stereo not drawn) | inactive: 6.21% |

From PubChem BioAssay AID720542 (National Center for Advancing Translational Sciences (NCATS), 2013)
